Measured values from several laboratories, pooled; numbers as filed in NIAID ChemDB.

All rows: whole-cell or culture tests; agent: Vaccinia virus

ECn is the concentration giving n% inhibition of infection, replication or growth.

SMILES | measure | strain or isolate | cell line | result
O=c1c2ncn(COC(CO)CO)c2nc2[nH]c(-c3ccccc3)cn12 | EC50 |  | E6SM | >90 µg/mL
CC[Si]1(C(C)C)O[C@H]2[C@@H](O)[C@H](c3ccccc3)O[C@@H]2CO[Si](C(C)C)(C(C)C)O1 | EC50 |  | E6SM | >3.2 µg/mL
CC1(C)[C@@H](CO)CC[C@@]1(C)Cn1cnc2c(Cl)ncnc21 | EC50 |  | E6SM | >400 µg/mL
Cc1cc(C)nc(NS(=O)(=O)c2ccc(N=C3C(=O)N(CN4CCNCC4)c4ccccc43)cc2)n1 | EC50 |  | HFF | >60 µM
CCCCCCCCCCC#Cc1c[nH]c(=O)[nH]c1=O | EC50 |  | HEL | >40 µM
CC(=O)N1C(=O)C(=Nc2ccc(S(=O)(=O)Nc3nc(C)cc(C)n3)cc2)c2cc(Cl)ccc21 | EC50 |  | HFF | >300 µM
Nc1ncnc2c1ncn2C[C@H](O)CO | EC50 |  | PRK | 10–40 µg/mL
Nn1c(SCC(=O)O)nnc1-c1cn(-c2ccccc2)nc1-c1ccccc1 | EC50 |  | HEL | >80 µg/mL
CCCCCCCCc1cn([C@@H]2O[C@H](COP(=O)(O)O)[C@@H](O)[C@H]2O)c(=O)nc1N | EC50 |  |  | >400 µg/mL
NC1CSCON2CCc3c([nH]c4ccccc34)[C@H]12 | EC50 |  | PRK | 0.1 µg/mL
CCCCCCCCC#Cc1c[nH]c(=O)[nH]c1=O | EC50 |  | HEL | >40 µM
CC(=O)OC[C@H]1O[C@@H](c2ccccc2)C[C@@H]1OC(C)=O | EC50 |  | E6SM | >400 µg/mL
CC1(C)[C@@H](CO)CC[C@@]1(C)Cn1ccc(=O)[nH]c1=O | EC50 |  | E6SM | >400 µg/mL
CC=NC(=N)c1nc(-c2cccc(C)c2)n(C/C=C/c2ccccc2)n1 | EC50 |  | E6SM | >4 µg/mL
Nc1ncnc2c1ncn2CCCC(O)CF | EC50 |  | ESM | >400 µg/mL
C#Cc1cn(S(=O)(=O)c2ccc(C)cc2)c(=O)[nH]c1=O | EC50 |  | HEL | >200 µM
C=C(N=CC)c1nc(-c2ccc(C)cc2)n([C@@H]2O[C@H](CO)[C@@H](O)[C@H]2O)n1 | EC50 |  | E6SM | >40 µg/mL
Nc1nccc2c1ncn2[C@@H]1C=C(CO)[C@@H](O)[C@H]1O | EC50 | Lederle CA | VERO | 0.3 µg/mL
Cc1cccn2c(C3OCCO3)cnc12 | EC50 |  | E6SM | >1000 µM
CCCCCC#Cc1cn(S(=O)(=O)c2ccc(C)cc2)c(=O)[nH]c1=O | EC50 |  | HEL | >40 µM
CO[C@H]1[C@H](O)[C@@H](CO)O[C@H]1n1ccc(N)nc1=O | EC50 |  | PRK | 200 µg/mL
CC1(CO)CCC(Cn2nnc3c(Cl)nc(N)nc32)C1(C)C | EC50 |  | E6SM | >100 µg/mL
CN[C@H]1C[C@@H](n2cnc3c(N)ncnc32)[C@H](O)[C@@H]1O | EC50 |  | HFF | >100 µg/mL
Cc1ccc(S(=O)(=O)n2cc(I)c(=O)[nH]c2=O)cc1 | EC50 |  | HEL | >200 µM
CCOC(=O)Sc1nnc(-c2cn(-c3ccccc3)nc2-c2ccccc2)n1N | EC50 |  | HEL | >16 µg/mL
Cc1cn(C(CF)CCCO)c(=O)[nH]c1=O | EC50 |  | ESM | >200 µg/mL
O=c1[nH]c(=O)n([C@H]2C[C@H](O)[C@@H](CO)O2)cc1-c1cc(-c2ccc(Cl)cc2)no1 | EC50 |  | E6SM | >40 µg/mL
COC[C@H]1O[C@@H](n2ccc(N)nc2=O)[C@@H](O)[C@@H]1O | EC50 |  | PRK | 10 µg/mL
[N-]=[N+]=NC(CBr)c1cc([C@H]2C[C@H](O)[C@@H](CO)O2)c(F)cc1F | EC50 |  | E6SM | >400 µg/mL
COC(=O)[C@H]1[C@@H]2C[C@@H](O[C@@H]3O[C@H](C)[C@@H](O)[C@H](N)[C@@H]3O)/C=C/C=C/C=C/C=C/C=C/C=C/C=C/[C@H](C)[C@@H](O)[C@H](C)[C@H](C)OC(=O)C[C@H](O)C[C@H](O)[C@@H](O)CC[C@H](O)C[C@H](O)C[C@](O)(C[C@@H]1O)O2 | EC50 |  | HFF | 5 µg/mL
CCCc1cn([C@H]2C[C@H](O)[C@@H](COP(=O)(O)O)O2)c(=O)[nH]c1=O | EC50 |  | PRK | >797 µg/mL
Cc1nn2c(-c3cn(-c4ccccc4)nc3-c3ccccc3)nnc2s1 | EC50 |  | HEL | >16 µg/mL
CC=NC(=N)c1nc(-c2cccc(OC)c2)n(Cc2ccccc2)n1 | EC50 |  | E6SM | >10 µg/mL
N#CC1=CSc2nnc(-c3cn(-c4ccccc4)nc3-c3ccccc3)n2N=C1N | EC50 |  | HEL | >80 µg/mL
Nc1ncnc2c1ncn2C[C@H](O)CO | EC50 |  | HSF | 10–20 µg/mL
Cc1cn([C@@H]2O[C@H](COP(=O)(O)O)[C@@H](O)[C@H]2O)c(=O)nc1N | EC50 |  |  | >400 µg/mL
O=c1[nH]c(=O)n([C@H]2C[C@H](O)[C@@H](CO)O2)cc1/C=C/Br | EC50 |  | PRK | 15 µg/mL
CS(=O)(=O)Cc1cn([C@H]2C[C@H](O)[C@@H](CO)O2)c(=O)[nH]c1=O | EC50 |  | PRK | 200 µg/mL
CCc1cn([C@H]2C[C@H](O)[C@@H](CO)O2)c(=O)[nH]c1=O | EC50 |  | PRK | 20 µg/mL
O=C1CSc2nnc(-c3cn(-c4ccccc4)nc3-c3ccccc3)n2N1 | EC50 |  | HEL | >16 µg/mL
CON1CCc2c([nH]c3ccccc23)[C@@H]1[C@@H](N)CSC | EC50 |  | PRK | >100 µg/mL
N#Cc1cn([C@H]2C[C@H](O)[C@@H](CO)O2)c(=O)[nH]c1=O | EC50 |  | Primary rabbit kidney cells | 16 µM
Nc1nc(=O)n([C@H]2C[C@H](O)[C@@H](CO)O2)cc1/C=C/Br | EC50 |  | Primary rabbit kidney cells | 200 µg/mL
Cc1cc(C)nc(NS(=O)(=O)c2ccc(N=C3C(=O)Nc4ccc(Br)cc43)cc2)n1 | EC50 |  | HFF | >300 µM
CCCCC#Cc1cn(S(=O)(=O)c2ccc(C)cc2)c(=O)[nH]c1=O | EC50 |  | HEL | >40 µM
NCC[C@H](N)C[C@H]1O[C@@H](n2cnc3c(N)ncnc32)[C@H](O)[C@@H]1O | EC50 | Lederle CA | L929 | ~700 µM
OC[C@H]1O[C@@H](c2cc(C(O)CI)c(F)cc2F)C[C@@H]1O | EC50 |  | E6SM | >16 µg/mL
CCCCc1cn([C@@H]2OC3COP(=O)(O)OC3[C@H]2O)c(=O)nc1N | EC50 |  |  | >400 µg/mL
O=c1[nH]n2c(-c3cn(-c4ccccc4)nc3-c3ccccc3)nnc2s1 | EC50 |  | HEL | >16 µg/mL
O=c1[nH]c(=O)n([C@H]2C[C@H](O)[C@@H](CO)O2)cc1I | EC50 |  | Primary rabbit kidney cells | 1.1 µM
Oc1cccc(O)c1-c1c2nc(c(-c3c(O)cccc3O)c3ccc([nH]3)c(-c3c(O)cccc3O)c3nc(c(-c4c(O)cccc4O)c4ccc1[nH]4)C=C3)C=C2 | EC50 | WR | BSC-40 | 0.19 µg/mL
CC=NC(=N)c1nc(-c2ccc(OC)cc2)n(COCCO)n1 | EC50 |  | E6SM | >200 µg/mL
C/C=C/c1cn([C@H]2C[C@H](O)[C@@H](CO)O2)c(=O)[nH]c1=O | EC99 |  | PRK | >100 µg/mL
CC=NC(=N)c1nc(-c2cccc(C)c2)n(COCCO)n1 | EC50 |  | E6SM | >10 µg/mL
N=C(N)CCNC(=O)c1c[nH]c(NC(=O)c2c[nH]c(NC(=O)CCCCCCCC(=O)Nc3c[nH]c(C(=O)Nc4c[nH]c(C(=O)NCCC(=N)N)c4)c3)c2)c1 | EC50 |  | PRK | 0.2 µg/mL
CC(C)c1cn([C@@H]2O[C@H](COP(=O)(O)O)[C@@H](O)[C@H]2O)c(=O)nc1N | EC50 |  |  | >400 µg/mL
COc1cc2c(cc1OC)[C@@H]1C(N)CSCON1CC2 | EC50 |  | E6SM | 0.07 µg/mL
CCc1cn([C@H]2C[C@H](O)[C@@H](CO)O2)c(=O)[nH]c1=O | EC50 |  | PRK | 20 µg/mL
Cc1cccn2c(C3OCCS3)cnc12 | EC50 |  | E6SM | >1000 µM
CC1(C)[C@@H](CO)CC[C@@]1(C)Cn1nnc2c(N)ncnc21 | EC50 |  | E6SM | >400 µg/mL
NC[C@H]1C[C@@H](n2cnc3c(N)ncnc32)[C@H](O)[C@@H]1O | EC50 |  | HFF | 76.5 µg/mL
N=C(N)CCNC(=O)c1c[nH]c(NC(=O)c2c[nH]c(NC(=O)/C=C/C(=O)Nc3c[nH]c(C(=O)Nc4c[nH]c(C(=O)NCCC(=N)N)c4)c3)c2)c1 | EC50 |  | PRK | 2 µg/mL
CC=NC(=N)c1nc(-c2ccccc2)n(COCCO)n1 | EC50 |  | E6SM | >40 µg/mL
CC1(CO)CCC(Cn2nnc3c(N)nc(N)nc32)C1(C)C | EC50 |  | E6SM | 30 µg/mL
N=C(N)CCNC(=O)c1c[nH]c(NC(=O)c2c[nH]c(NC(=O)CCCCCCC(=O)Nc3c[nH]c(C(=O)Nc4c[nH]c(C(=O)NCCC(=N)N)c4)c3)c2)c1 | EC50 |  | PRK | 0.2 µg/mL
Cc1ccn2c(C3OCCO3)cnc2c1 | EC50 |  | E6SM | >1000 µM
Nc1ccn(CCCC(O)CF)c(=O)n1 | EC50 |  | ESM | >400 µg/mL
N=c1c2ncn([C@@H]3O[C@H](COP(=O)(O)O)[C@@H](O)[C@@H]3O)c2ncn1O | MIC |  |  | 1–10 µg/mL
CCOC(=O)C1=CSc2nnc(-c3cn(-c4ccccc4)nc3-c3ccccc3)n2N=C1N | EC50 |  | HEL | >16 µg/mL
O=c1[nH]c(=O)n([C@H]2C[C@H](O)[C@@H](CO)O2)cc1I | EC99 |  | PRK | 0.25 µg/mL
CCc1cc([C@H]2C[C@H](O)[C@@H](CO)O2)c(F)cc1F | EC50 |  | E6SM | >400 µg/mL
Cc1cn([C@H]2C/C(=N\O)[C@@H](CO)O2)c(=O)[nH]c1=O | EC50 |  | E6SM | >200 µg/mL
COC(CI)c1cc([C@H]2C[C@H](O)[C@@H](CO)O2)c(F)cc1F | EC50 |  | E6SM | >80 µg/mL
CC1(CO)CCC(Cn2cnc3c(N)nc(N)nc32)C1(C)C | EC50 |  | E6SM | 150 µg/mL
O=c1[nH]c(=O)n(C2CC(O)C(CO)O2)cc1CCCCl | EC50 |  | PRK | 27 µg/mL

Repeating the first 7 entries:

| SMILES | measure | strain or isolate | cell line | result |
|---|---|---|---|---|
| O=c1c2ncn(COC(CO)CO)c2nc2[nH]c(-c3ccccc3)cn12 | EC50 |  | E6SM | >90 µg/mL |
| CC[Si]1(C(C)C)O[C@H]2[C@@H](O)[C@H](c3ccccc3)O[C@@H]2CO[Si](C(C)C)(C(C)C)O1 | EC50 |  | E6SM | >3.2 µg/mL |
| CC1(C)[C@@H](CO)CC[C@@]1(C)Cn1cnc2c(Cl)ncnc21 | EC50 |  | E6SM | >400 µg/mL |
| Cc1cc(C)nc(NS(=O)(=O)c2ccc(N=C3C(=O)N(CN4CCNCC4)c4ccccc43)cc2)n1 | EC50 |  | HFF | >60 µM |
| CCCCCCCCCCC#Cc1c[nH]c(=O)[nH]c1=O | EC50 |  | HEL | >40 µM |
| CC(=O)N1C(=O)C(=Nc2ccc(S(=O)(=O)Nc3nc(C)cc(C)n3)cc2)c2cc(Cl)ccc21 | EC50 |  | HFF | >300 µM |
| Nc1ncnc2c1ncn2C[C@H](O)CO | EC50 |  | PRK | 10–40 µg/mL |

Blank or dashed fields: not listed here. Two numbers with a dash give a range or band. Rows are shuffled and stem from different studies.